From patent publication US7319143

Biological target: mouse H-2K^k class I heavy chain (endogenous, on MD45 cells) (mouse)
Assay: cell-based or functional assay

Work on “chimeric nucleoprotein (NP) peptide/hβ2m/ζ polypeptide (clone 406-20) (from UniProt P61769 21-119; P24161 31-164)” yielded an IL-2 (CTL-L bioassay, MTT O.D.) after immobilized anti-H-2K^k mAb; clone 797-2 of 0.003 O.D, an IL-2 (CTL-L bioassay, MTT O.D.) after immobilized anti-H-2K^k mAb; clone 797-3 of 0.162 O.D and an IL-2 (CTL-L bioassay, MTT O.D.) after immobilized anti-H-2K^k mAb; clone 797-5 of 0.001 O.D. For the same substance, the IL-2 (CTL-L bioassay, MTT O.D.) after immobilized anti-H-2K^k mAb; clone 797-6 was 0.002 O.D, the IL-2 (CTL-L bioassay, MTT O.D.) after immobilized anti-H-2K^k mAb; clone 797-7 was 0.007 O.D and the IL-2 (CTL-L bioassay, MTT O.D.) after immobilized anti-H-2K^k mAb; clone 797-8 was 0.004 O.D. The IL-2 (CTL-L bioassay, MTT O.D.) after immobilized anti-H-2K^k mAb; clone 797-9 was 0.024 O.D, the IL-2 (CTL-L bioassay, MTT O.D.) after immobilized anti-H-2K^k mAb; clone 797-10 was 0.161 O.D and the IL-2 (CTL-L bioassay, MTT O.D.) after immobilized anti-H-2K^k mAb; clone 797-11 was 0.008 O.D. The IL-2 (CTL-L bioassay, MTT O.D.) after immobilized anti-H-2K^k mAb; clone 797-12 was 0.005 O.D, the IL-2 (CTL-L bioassay, MTT O.D.) after immobilized anti-H-2K^k mAb; clone 797-13 was 0.008 O.D and the IL-2 (CTL-L bioassay, MTT O.D.) after immobilized anti-H-2K^k mAb; clone 797-15 was 0.01 O.D. The IL-2 (CTL-L bioassay, MTT O.D.) after immobilized anti-H-2K^k mAb; clone 797-16 was 0.039 O.D, the IL-2 (CTL-L bioassay, MTT O.D.) after immobilized anti-H-2K^k mAb; clone 797-17 was 0.004 O.D and the IL-2 (CTL-L bioassay, MTT O.D.) after immobilized anti-H-2K^k mAb; clone 797-18 was 0.113 O.D. For the same substance, the IL-2 (CTL-L bioassay, MTT O.D.) after immobilized anti-H-2K^k mAb; clone 797-19 was 0.006 O.D, the IL-2 (CTL-L bioassay, MTT O.D.) after immobilized anti-H-2K^k mAb; clone 797-20 was 0.02 O.D and the IL-2 (CTL-L bioassay, MTT O.D.) after immobilized anti-H-2K^k mAb; clone 797-21 was 0.011 O.D. It also gave an IL-2 (CTL-L bioassay, MTT O.D.) after immobilized anti-H-2K^k mAb; clone 797-22 of 0.02 O.D, an IL-2 (CTL-L bioassay, MTT O.D.) after immobilized anti-H-2K^k mAb; clone 797-23 of 0.008 O.D and an IL-2 (CTL-L bioassay, MTT O.D.) after immobilized anti-H-2K^k mAb; clone 797-24 of 0.05 O.D.
Substance “chimeric hemagglutinin (Ha) peptide/hβ2m/ζ polypeptide (clone 407-4) (from UniProt P61769 21-119; P24161 31-164)” has an IL-2 (CTL-L bioassay, MTT O.D.) after immobilized anti-H-2K^k mAb; clone 798-1 of 0.011 O.D, an IL-2 (CTL-L bioassay, MTT O.D.) after immobilized anti-H-2K^k mAb; clone 798-2 of 0.078 O.D and an IL-2 (CTL-L bioassay, MTT O.D.) after immobilized anti-H-2K^k mAb; clone 798-3 of 0.013 O.D. It also gave an IL-2 (CTL-L bioassay, MTT O.D.) after immobilized anti-H-2K^k mAb; clone 798-4 of 0.009 O.D, an IL-2 (CTL-L bioassay, MTT O.D.) after immobilized anti-H-2K^k mAb; clone 798-5 of 0.008 O.D and an IL-2 (CTL-L bioassay, MTT O.D.) after immobilized anti-H-2K^k mAb; clone 798-6 of 0.007 O.D. For the same substance, the IL-2 (CTL-L bioassay, MTT O.D.) after immobilized anti-H-2K^k mAb; clone 798-7 was 0.011 O.D, the IL-2 (CTL-L bioassay, MTT O.D.) after immobilized anti-H-2K^k mAb; clone 798-8 was 0.008 O.D and the IL-2 (CTL-L bioassay, MTT O.D.) after immobilized anti-H-2K^k mAb; clone 798-9 was 0.048 O.D. It also gave an IL-2 (CTL-L bioassay, MTT O.D.) after immobilized anti-H-2K^k mAb; clone 798-10 of 0.008 O.D, an IL-2 (CTL-L bioassay, MTT O.D.) after immobilized anti-H-2K^k mAb; clone 798-11 of 0.005 O.D and an IL-2 (CTL-L bioassay, MTT O.D.) after immobilized anti-H-2K^k mAb; clone 798-12 of 0.006 O.D. For the same substance, the IL-2 (CTL-L bioassay, MTT O.D.) after immobilized anti-H-2K^k mAb; clone 798-13 was 0.011 O.D, the IL-2 (CTL-L bioassay, MTT O.D.) after immobilized anti-H-2K^k mAb; clone 798-14 was 0.007 O.D and the IL-2 (CTL-L bioassay, MTT O.D.) after immobilized anti-H-2K^k mAb; clone 798-15 was 0.009 O.D. For the same substance, the IL-2 (CTL-L bioassay, MTT O.D.) after immobilized anti-H-2K^k mAb; clone 798-16 was 0.069 O.D, the IL-2 (CTL-L bioassay, MTT O.D.) after immobilized anti-H-2K^k mAb; clone 798-17 was 0.019 O.D and the IL-2 (CTL-L bioassay, MTT O.D.) after immobilized anti-H-2K^k mAb; clone 798-18 was 0.082 O.D. The IL-2 (CTL-L bioassay, MTT O.D.) after immobilized anti-H-2K^k mAb; clone 798-19 was 0.052 O.D, the IL-2 (CTL-L bioassay, MTT O.D.) after immobilized anti-H-2K^k mAb; clone 798-20 was 0.006 O.D and the IL-2 (CTL-L bioassay, MTT O.D.) after immobilized anti-H-2K^k mAb; clone 798-21 was 0.12 O.D. For the same substance, the IL-2 (CTL-L bioassay, MTT O.D.) after immobilized anti-H-2K^k mAb; clone 798-22 was 0.01 O.D and the IL-2 (CTL-L bioassay, MTT O.D.) after immobilized anti-H-2K^k mAb; clone 798-23 was 0 O.D.
